Pooled drug test results. Numbers come from NIAID ChemDB, via PubChem.

Shared fields: cytotoxicity tests; cell line: CEM; read-out: CC50

Rows are shuffled and stem from different studies. CCn is the concentration with n% toxicity to the cells. Two numbers with a dash give a range or band.

smiles | value
CCc1cn([C@H]2C=C[C@@H](OCP(=O)(O)O)O2)c(=O)[nH]c1=O | >100 µg/mL
Nc1nc2c(ncn2[C@H]2C=C(F)[C@@H](CO)O2)c(=O)[nH]1 | >100 µM
O=c1[nH]c(=O)n([C@H]2O[C@@H](CO)[C@H](O)[C@H]2F)cc1/C=C/Br | >100 µM
Cc1ccc(C)c(C(C)S(=O)(=O)c2c(C)ccc[n+]2[O-])c1 | 36 µg/mL
COCn1c(Cc2cccc3ccccc23)c(C)c(=O)[nH]c1=O | 127 µM
O=c1ccn([C@@H]2O[C@H](CO)C(F)(F)C2(F)F)c(=O)[nH]1 | >100 µM
Nc1nc2c(ncn2[C@@H]2OC[C@H](/C=C/P(=O)(O)O)C23CC3)c(=O)[nH]1 | >100 µM
Cc1cn([C@@H]2O[C@H](C3CO[Si](C(C)C)(C(C)C)O[Si](C(C)C)(C(C)C)O3)C3(OS(=O)(=O)C=C3N)[C@H]2O[Si](C)(C)C(C)(C)C)c(=O)[nH]c1=O | 53.1 µM
Nc1nc(Cl)c2ncn([C@H]3O[C@@H](CO)C=C3F)c2n1 | >100 µM
Nc1ncnc2c1ncn2[C@@H]1OC[C@H](/C=C/P(=O)(O)O)C12CC2 | >100 µM
Cc1cccn2c(C3OCCS3)cnc12 | ≥100 µM
N#C/C(=C\c1ccccc1)S(=O)(=O)/C(C#N)=C/c1ccc(O)c(O)c1 | 25.7 µM
CC(C)C[C@H](NC(=O)c1ccccc1SSc1ccccc1C(=O)N[C@@H](CC(C)C)C(N)=O)C(N)=O | 21 µM
O=c1ccn([C@H]2CCC[C@H]2CO)c(=O)[nH]1 | >100 µg/mL
CC(C)c1c(Sc2ccccc2)n(COCc2ccccc2)c(=S)[nH]c1=O | >100 µM
CCCc1c(Cc2ccc3ccccc3c2)n(COC)c(=O)[nH]c1=O | 54.4 µM
Nc1nccc2c1ncn2[C@@H]1C[C@H](O)[C@@H](O)[C@H]1O | 27 µg/mL
O=S(=O)(c1cccc2cnccc12)N1CCNCC1 | 10.2 µg/mL
Cc1cn([C@@H]2O[C@H](C3CO[Si](C(C)C)(C(C)C)O[Si](C(C)C)(C(C)C)O3)C3(OS(=O)(=O)C=C3N)[C@H]2O)c(=O)[nH]c1=O | 11.4 µM
Cc1ccc(C)c(CSc2c(Cl)ccc[n+]2[O-])c1 | 38 µg/mL
Nc1ccn([C@@H]2O[C@H](CO)C(F)(F)C2(F)F)c(=O)n1 | >100 µM
C=Cc1cn([C@H]2C=C[C@@H](OCP(=O)(O)O)O2)c(=O)[nH]c1=O | 96 µg/mL
O=S(=O)(Cc1c(Cl)c(Cl)c(Cl)c(Cl)c1Cl)c1cccc[n+]1[O-] | 1.2 µg/mL
Oc1ccc(/C=C/c2ccc(O)c(O)c2)cc1O | 16.8 µM
CCOC(=O)C1=C(C)NC(=O)NC1c1ccccc1 | >5 µM
Nc1nc(=O)n([C@H]2O[C@@H](CO)C=C2F)cc1F | >100 µM
Cc1cc(C)cc(C(=O)c2c(C(C)C)c(=O)[nH]c(=O)n2CC2CCCC2)c1 | 17.9 µM
N#C/C(=C\c1ccc(O)c(O)c1)C(=O)NCc1ccccc1 | 33.7 µM
CCCCC(=O)Oc1ccc(COP(=O)(OCc2ccc(OC(=O)CCCC)cc2)OP(=O)(O)OC[C@@H]2C=C[C@H](n3cc(C)c(=O)[nH]c3=O)O2)cc1 | 80 µM
CCc1c(Cc2ccc3ccccc3c2)n(COC)c(=O)[nH]c1=O | 92.9 µM
Cc1cc(C)cc(C(=O)c2c(C(C)C)c(=O)[nH]c(=O)n2CC2CCCCC2)c1 | 44.7 µM
O=c1ccn([C@H]2O[C@@H](CO)C=C2F)c(=O)[nH]1 | >100 µM
Cc1ccn2c(C3OCCO3)cnc2c1 | >100 µM
Nc1nc(Cl)c2ncn([C@@H]3O[C@@H](CO)C=C3F)c2n1 | 28.2 µM
O=c1[nH]c(=O)n([C@H]2CCC[C@H]2CO)cc1I | 68.7 µg/mL
Nc1nc(=O)n([C@@H]2O[C@@H](CO)[C@H](O)C2(F)F)cc1Cl | >100 µM
O=c1[nH]c(=O)n([C@H]2CCC[C@@H]2CO)cc1I | >100 µg/mL
CC(C)OC(=O)[C@H](C)NP(=O)(OC[C@H]1O[C@@H](n2cnc3c(=O)[nH]c(N)nc32)C(F)(F)C1(F)F)Oc1ccccc1 | >100 µM
O=c1[nH]c(=O)n([C@H]2O[C@@H](CO)[C@H](O)C2(F)F)cc1I | >100 µM
CCC[C@H](NP(=O)(OC[C@@H]1C=C[C@H](n2cc(C)c(=O)[nH]c2=O)O1)Oc1ccccc1)C(=O)OC | ≥250 µM
O=c1[nH]cnc2c1ncn2[C@@H]1O[C@@H](CO)C=C1F | >100 µM
CCC(CC)(NP(=O)(OC[C@@H]1C=C[C@H](n2cc(C)c(=O)[nH]c2=O)O1)Oc1ccccc1)C(=O)OC | 80.3 µM
N#C/C(=C\c1ccc(O)c(O)c1)C(=O)c1ccc(O)c(O)c1 | 36.2 µM
CCCc1c(Cc2ccc3ccccc3c2)n(COCc2ccccc2)c(=O)[nH]c1=O | 19 µM
COC(=O)CC[C@H](CC#N)NC(=O)c1ccccc1SSc1ccccc1C(=O)N[C@@H](CC#N)CCC(=O)OC | 69 µM
Cc1cc(C)cc(Sc2c(C(C)C)c(=O)[nH]c(=O)n2CC2CC=CC2)c1 | >20 µM
Nc1nc2c(ncn2[C@H]2O[C@@H](CO)[C@H](O)C2(F)F)c(=O)[nH]1 | >100 µM
Nc1ccc(C[C@H](NC(=O)c2ccccc2SSc2ccccc2C(=O)N[C@@H](Cc2ccc(N)cc2)C(=O)O)C(=O)O)cc1 | 15 µM
Cc1cccn2c(C3OCCO3)cnc12 | ≥100 µM
O=c1[nH]c(=O)n([C@@H]2O[C@@H](CO)[C@H](O)C2(F)F)cc1Br | >100 µM
S=C(Cc1ccccn1)NCCc1ccccc1 | >200 µM
Cc1cn([C@H]2C=C(F)[C@@H](CO)O2)c(=O)[nH]c1=O | >100 µM
CCOCn1c(Sc2ccccc2)c(C(C)C)c(=O)[nH]c1=S | >100 µM
Nc1nc2c(ncn2[C@@H]2O[C@@H](CO)C=C2F)c(=O)[nH]1 | >100 µM
OC1COC(O)C(O)C1O.OCC1OC(O)C(O)C(O)C1O.OCC1OC(O)C(O)C(O)C1O.OCC1OC(O)C(O)C(O)C1O | >100 µg/mL
CCCC[C@H](NC(=O)c1ccccc1SSc1ccccc1C(=O)N[C@@H](CCCC)C(=O)OC(C)(C)C)C(=O)OC(C)(C)C | 16 µM
O=c1[nH]cnc2c1ncn2[C@@H]1C=C(F)[C@H](CO)O1 | >100 µM
CCOCn1c(Sc2ccccc2)c(CC)c(=O)[nH]c1=S | 68.4 µM
Nc1nc(F)nc2c1ncn2[C@@H]1O[C@@H](CO)C=C1F | >100 µM
Cc1cn([C@H]2C=C[C@@H](OCP(=O)(O)O)O2)c(=O)[nH]c1=O | >100 µg/mL
CCCCCCCCCC(=O)Oc1ccc(COP(=O)(OCc2ccc(OC(=O)CCCCCCCCC)cc2)OP(=O)(O)OC[C@@H]2C=C[C@H](n3cc(C)c(=O)[nH]c3=O)O2)cc1 | 62 µM
C[N+]1(C)CC2c3cc4c5c6c3-c3c(cc7c8c3C63C[N+](C)(C)CC36C3=C5C(C4)Cc4ccc5cc(c-8c6c5c43)C7)C2C1 | >125 µM
CCC(NC(=O)c1ccccc1SSc1ccccc1C(=O)NC(CC)C(=O)O)C(=O)O | >100 µM
Cc1ccn2c(C3OCCS3)cnc2c1 | 28 µM
O=c1[nH]c(=O)n([C@H]2CS[C@@H](CO)O2)cc1/C=C/Br | >100 µM
CCOCn1c(Cc2ccc3ccccc3c2)c(C)c(=O)[nH]c1=O | 97.2 µM
N#C/C(=C\c1ccc(O)c(O)c1)C(=O)NCCCCCNC(=O)/C(C#N)=C/c1ccc(O)c(O)c1 | 13 µM
Nc1ncnc2c1ncn2[C@@H]1O[C@H](CO)C(F)(F)C1(F)F | >100 µM
Nc1nc(=O)n(C2O[C@@H](CO)[C@H](O)C2(F)F)cc1Br | >100 µM
CCc1c(C(=O)c2cc(C)cc(C)c2)n(Cc2ccccc2)c(=O)[nH]c1=O | 1100 µM
Cc1cn([C@@H]2O[C@H](COP(=O)(N[C@@H](C)C(=O)OC(C)C)Oc3ccccc3)C(F)(F)C2(F)F)c(=O)[nH]c1=O | >100 µM
Cc1cc(=O)c2c(O)c3c(O)cc(O)c4c5c(O)cc(O)c6c(O)c7c(=O)cc(C)c8c1c2c(c34)c(c65)c78 | >4 µg/mL
CCCCCCC(=O)Oc1ccc(COP(=O)(OCc2ccc(OC(=O)CCCCCC)cc2)OP(=O)(O)OC[C@@H]2C=C[C@H](n3cc(C)c(=O)[nH]c3=O)O2)cc1 | 85 µM
Cc1ccc(C)c(C(Cl)S(=O)(=O)c2cc(C)cc[n+]2[O-])c1 | >4 µg/mL
Cc1cc(C)cc(Sc2c(C(C)C)c(=O)[nH]c(=O)n2COCCO)c1 | 79.4 µM
Nc1ccn([C@H]2CC[C@@H](CO)O2)c(=O)n1 | 2.5–5.1 µg/mL
Cc1cn([C@@H]2O[C@@H](CO)C=C2F)c(=O)[nH]c1=O | >100 µM
O=c1[nH]c(=O)n([C@H]2O[C@@H](CO)[C@H](O)C2(F)F)cc1Br | >100 µM
Nc1ccn([C@@H]2O[C@@H](CO)C=C2F)c(=O)n1 | >100 µM
CCCC(CCC)(NP(=O)(OC[C@@H]1C=C[C@H](n2cc(C)c(=O)[nH]c2=O)O1)Oc1ccccc1)C(=O)OC | 98.6 µM
Cc1cc(C)cc(Sc2c(C(C)C)c(=O)[nH]c(=O)n2CC2CC2)c1 | 12.8 µM
O=c1ccn([C@@H]2O[C@@H](CO)[C@H](O)C2(F)F)c(=O)[nH]1 | >100 µM

The last 5 rows once more:

smiles	value
O=c1[nH]c(=O)n([C@H]2O[C@@H](CO)[C@H](O)C2(F)F)cc1Br	>100 µM
Nc1ccn([C@@H]2O[C@@H](CO)C=C2F)c(=O)n1	>100 µM
CCCC(CCC)(NP(=O)(OC[C@@H]1C=C[C@H](n2cc(C)c(=O)[nH]c2=O)O1)Oc1ccccc1)C(=O)OC	98.6 µM
Cc1cc(C)cc(Sc2c(C(C)C)c(=O)[nH]c(=O)n2CC2CC2)c1	12.8 µM
O=c1ccn([C@@H]2O[C@@H](CO)[C@H](O)C2(F)F)c(=O)[nH]1	>100 µM